5 compounds from ChEMBL document CHEMBL4665731, “Antifungal trichothecene sesquiterpenes obtained from the culture broth of marine-derived Trichoderma cf. brevicompactum and their structure-activity relationship” (2020) can be followed below.

Converted amounts (≈) assume the structure as drawn.

In this test the test system is Cryptococcus neoformans. Put plainly: Antifungal activity against Cryptococcus neoformans ATCC 14116 assessed as reduction in fungal growth incubated for 72 hrs by CLSI broth microdilution method. The class given is functional. Background: In broth dilution the organism is exposed to a series of concentrations in liquid medium.
A word on the MIC90: it is an inhibitory concentration at the 90% level, which refers to growth in some studies and to a panel of isolates in others. Consider `CC(=O)O[C@@H]1[C@@H](OC(C)=O)[C@]2(C)[C@@]3(C)CCC(C)=C[C@H]3O[C@H]1[C@@]21CO1`, for which the MIC90 amounted to 25 µg/mL (≈ 71.3 µM).

Turning to `C/C=C/C=C\C(=O)O[C@@H]1[C@@H](OC(C)=O)[C@H]2O[C@@H]3C=C(C)CC[C@]3(C)[C@]1(C)[C@]21CO1`, the MIC90 amounted to 6.3 µg/mL (≈ 15.7 µM).

Turning to `CC(=O)O[C@@H]1[C@@H](O)[C@]2(C)[C@@]3(C)CCC(C)=C[C@H]3O[C@H]1[C@@]21CO1`, the MIC90 was greater than 50 µg/mL.

As for `CCCC(=O)O[C@@H]1[C@@H](O)[C@]2(C)[C@@]3(C)CCC(C)=C[C@H]3O[C@H]1[C@@]21CO1`, the MIC90 is greater than 50 µg/mL.

With `CCCC(=O)O[C@@H]1[C@@H](OC(=O)CCC)[C@]2(C)[C@@]3(C)CCC(C)=C[C@H]3O[C@H]1[C@@]21CO1`, the MIC90 is greater than 50 µg/mL.
